Test [1] relates to Jurkat. Briefly: mean cell size (FSC-A) relative to DMSO control (fraction of control); higher = larger cells. As to conditions: concentration: 25 µM; 48 h. The procedure, abridged: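 Jurkat cells seeded at 600 cells/µl were incubated 1 h, then exposed for 48h to the Enzo Screen-Well FDA Approved Drug Library v2.0 at 25µM in 0.9% (v/v) final DMSO. Drugs that cut counts below 20% of controls were diluted 10-fold and retested, down to 25nM. Cell count and mean cell size (forward scatter area) were read on an Accuri C6 flow cytometer, relative to solvent-only controls. Plates held 6-12 controls; values are means of 3 biological replicates.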

Test [2] has as its system Jurkat. Kind of test: cell count relative to DMSO control (fraction of control); higher = more cells (less growth inhibition). As to conditions: concentration: 25 µM; 48 h.

± gives the standard deviation. The entries are a selection whose mix differs from that of the whole data set.

Turning to `[As+3].[As+3].[O-2].[O-2].[O-2]` [Arsenic Trioxide], in test [1], the mean cell size was found to be 0.876 ± 0.013. The compound also showed a cell count in test [2] of 0.503 ± 0.072.
